# Test results: paper PMC8686763, “Pre-Steady-State Kinetics of the SARS-CoV-2 Main Protease as a Powerful Tool for Antiviral Drug Discovery” (Frontiers in Pharmacology, 2021)
# Key:
# WT M^pro = WT M^pro (Severe acute respiratory syndrome coronavirus 2, UniProt P0DTD1); format: biochemical
# SARS-CoV-2 M^pro = SARS-CoV-2 M^pro (Severe acute respiratory syndrome coronavirus 2, UniProt P0DTD1); conditions: read-out: M^pro IC50; cited from earlier work
substance,measurement,setting,value
Thimerosal,relative efficacy of M^pro inhibition (in words),WT M^pro,lowest activity tier
same,IC50,SARS-CoV-2 M^pro,600 nM
